Results of unrelated studies side by side (data: NIAID ChemDB).

Common to all: tests in culture; agent: Hepatitis C virus; measure: EC50

Blank or dashed fields: not listed here. ECn is the concentration giving n% inhibition of infection, replication or growth. Two numbers with a dash give a range or band. Lines come from different laboratories, so protocols vary.

smiles	changes	strain or isolate	read by	cell line	result
O=C(O)c1ccc2c(C3CCCCC3)c3n(c2c1)CC(C(=O)N1CCOCC1)=Cc1cccnc1-3			replicon	Huh7	0.01–1 µM
COC(=O)N[C@H](C(=O)N1CCCC1c1ncc(-c2ccc(-c3ccc(-c4cnc([C@@H]5CC(C)CN5C(=O)[C@@H](NC(=O)CO)C(C)C)[nH]4)cc3)cc2)[nH]1)C(C)C	L31V	1a	luciferase	Lunet	0.0035 µM
CCOc1nc(NCc2ccc(F)cc2)nc2ccc(-c3ccc(NC(N)=O)cc3)nc12			replicon		<0.1 µM
NC(=S)Nc1cccc(OCCCCOc2ccccc2)c1			reporter gene / fluorescence	Ava5-EG(delta4AB)SEAP	0.001–1 µM
O=C(O)c1ccc2c(C3CCCCC3)c3n(c2c1)CC(C(=O)Nc1ccccc1)Cc1ccccc1-3			replicon	Huh7	1–10 µM
NS(=O)(=O)c1ccc(CNc2nc(C3CC3)c3nc(-c4ccc(F)c(S(N)(=O)=O)c4)ccc3n2)cc1			replicon		<0.1 µM
COC(=O)c1ccc2c(C3CCCCC3)c3n(c2c1)CC(CO)Cc1ccccc1-3			replicon	Huh7	0.01–1 µM
NS(=O)(=O)c1ccc(CNc2nc(NCC(F)(F)F)c3nc(-c4ccc(NC(=O)[C@H]5CCNC5)cc4)ccc3n2)cc1			replicon		<0.1 µM
O=C(O)c1ccc2c(C3CCCCC3)c3n(c2c1)C/C=C\CN(CCO)c1ccccc1-3			replicon	Huh7	1–10 µM
CCCCCCCNC(=S)Nc1ccc2c(c1)Cc1cc(Br)ccc1-2			reporter gene / fluorescence	Ava5-EG(delta4AB)SEAP	0.001–1 µM
CC1CCC(C(=O)N(c2cc(-c3ccc(NC(=O)c4cccs4)cc3)sc2C(=O)O)C(C)C)CC1		1b	replicon		<0.5 µM
S=C(NCCCCc1ccccc1)Nc1cccc(OCCCCCc2ccccc2)c1			reporter gene / fluorescence	Ava5-EG(delta4AB)SEAP	0.001–1 µM
COC(=O)Nc1ccc(-c2ccc3nc(N)nc(N4CCS(=O)(=O)CC4)c3n2)cc1			replicon	Huh7	<0.3 µM
Cc1cncc(C(=O)Nc2ccc(-c3cc(N(C(=O)C4CCC(C)CC4)C(C)C)c(C(=O)O)s3)cc2)c1		1a	replicon		>0.5 µM
COC1c2ccccc2-c2c(C3CCCCC3)c3ccc(C(=O)NC4(C(=O)Nc5ccc(/C=C/C(=O)O)cc5)CCCC4)cc3n21			replicon	Huh7	0.01–1 µM
Fc1ccc(CNc2nc(NCc3cccnc3)c3nc(-c4ccc(F)cc4)ccc3n2)cc1			replicon		<0.1 µM
Cn1cnc(S(=O)(=O)NC(=O)c2ccc3c(C4CCCCC4)c4n(c3c2)C[C@@H](O)[C@@H](O)c2ncccc2-4)c1			replicon	Huh7	>10 µM
CC1CCC(C(=O)N(c2cc(-c3ccc(NC(=O)c4cscn4)cc3)sc2C(=O)[O-])C(C)C)CC1.NC(N)=[NH+]CCCC(N)C=O		1a	replicon		<0.5 µM
O=C(NC1(C(=O)Nc2ccc(-c3csc(C(=O)O)n3)cc2)CCCC1)c1ccc2c(C3CCCCC3)c3n(c2c1)CCCc1ccccc1-3			replicon	Huh7	0.01–1 µM
CCCCCNC(=S)Nc1ccc2c(c1)Cc1cc(Br)ccc1-2			reporter gene / fluorescence	Ava5-EG(delta4AB)SEAP	0.001–1 µM
CCOc1nc(NCc2ccc(F)cc2)nc2ccc(-c3ccc(NC(=O)OCCN4CCCC4)cc3)nc12			replicon		<0.1 µM
NC(=S)Nc1cccc(OCCCCCOc2ccc(Cc3ccccc3)cc2)c1			reporter gene / fluorescence	Ava5-EG(delta4AB)SEAP	0.001–1 µM
CCOc1nc(N)nc2ccc(-c3cccc(NS(=O)(=O)c4cn(C)cn4)c3)nc12			replicon	Huh7	0.3–1 µM
CC1CCC(C(=O)N(c2cc(-c3cnc(NC(=O)c4cscn4)c(Cl)c3)sc2C(=O)O)C(C)C)CC1		1a	replicon		<0.5 µM
CCOc1nc(NCc2ccc(F)cc2)nc2ccc(-c3cccc(NS(=O)(=O)N(C)C)c3)nc12			replicon		<0.1 µM
CC1CCC(C(=O)N(c2cc(-c3ccc(NC(=O)c4ccncn4)cc3)sc2C(=O)O)C(C)C)CC1		1a	replicon		<0.5 µM
O=C1Cn2c(c(C3CCCCC3)c3ccc(C(=O)NS(=O)(=O)N4CCN(c5ccccc5)CC4)cc32)-c2ccccc2N1			replicon	Huh7	1–10 µM
CCOc1nc(NCc2ccc(F)cc2)nc2ccc(-c3ccc(NC(=O)C4(O)CC4)cc3)nc12			replicon		<0.1 µM